Data from the supplement of paper PMC10498489.
This is a selection; strong and weak results do not stand in their true shares.

tested on: HepG2 Srxn1-GFP reporter cells (+30 nM CDDO-Me); test: Srxn1-GFP intensity median modified Z-score relative to plate median; higher = stronger NRF2 / oxidative stress reporter activation, active = hit call of the paper; settings: 10 µM; exposure time: 24h;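 active = median modified Z-score above 1.96; inactive = 1.96 or below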
Outline: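 Per-cell cytoplasmic GFP was measured on confocal images of formaldehyde-fixed, Hoechst-stained HepG2 Srxn1-GFP BAC reporter cells, excluding images with fewer than 100 cells. Before this, the cells (20,000 per well, 96-well plates) were co-exposed for 24 h to compound at 10 μM and an NRF2 activator at 30 nM with ≤0.1% DMSO, in three replicate plates. Each value is the median over replicates of the per-plate modified Z-score of GFP intensity. That score was scaled with 1.4826 × median absolute deviation.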

Row | SMILES | Srxn1-GFP intensity median modified Z-score
1 | O=P(O)(O)F [euspeclibcmpd2451] | inactive: -0.14
